Results of unrelated studies side by side (data: NIAID ChemDB).

All rows: whole-cell or culture tests; organism: Herpes simplex virus 2; method: cytopathic effect; endpoint: EC50

An empty or dashed field is not shown.

compound	strain	cell line	value
CCOC(=O)Sc1nnc(-c2cn(-c3ccccc3)nc2-c2ccccc2)n1N	G	HEL	>16 µg/mL
O=c1[nH]c(=O)n(COC(CO)CO)nc1Cc1ccc(Cl)cc1	-	HFF	>100 µM
COc1ncnc2c1ncn2[C@@H]1O[C@H](CO)[C@@H](O)[C@@H]1O	-	VERO	>100 µM
CC1(CO)CCC(Cn2cnc3c(N)nc(N)nc32)C1(C)C	G	E6SM	150 µg/mL
O=c1[nH]c(=O)n(COCCO)nc1Cc1ccc(Cl)cc1	-	HFF	>100 µM
OC[C@H]1O[C@@H](n2c(SCc3ccccn3)nc3ccccc32)[C@H](O)[C@@H]1O	-	HEL	>100 µg/mL
CCCCCOc1nc(N)nc2c1ncn2/C=C1/C[C@@H]1CO	-	HFF	>330 µM
CC1(CO)CCC(Cn2cnc3c(=O)[nH]c(N)nc32)C1(C)C	G	E6SM	>400 µg/mL
COc1ccc(Cc2nn(COC(CO)CO)c(=O)[nH]c2=O)cc1	-	HFF	>100 µM
CCOC(=O)CSc1nnc(-c2cn(-c3ccccc3)nc2-c2ccccc2)n1N	G	HEL	>80 µg/mL
C#CCNc1nc(N)nc2c1ncn2/C=C1/C[C@@H]1CO	-	HFF	>370 µM
OC[C@H]1O[C@@H](c2cc(F)c(F)cc2F)C[C@@H]1O	196	E6SM	>400 µg/mL
O=c1ccn(C2CC(O[N+](=O)[O-])C(CO)O2)c(=O)[nH]1	G	E6SM	>400 µg/mL
O=c1[nH]c(=O)n([C@@H]2S[C@H](CO)[C@@H](O)[C@@H]2F)cc1F	MS	-	>27 µg/mL
CC1(CO)CCC(Cn2nnc3c(N)nc(N)nc32)C1(C)C	G	E6SM	300 µg/mL
Nc1nc(N)c2ncn([C@H]3S[C@H](CO)[C@@H](O)[C@@H]3F)c2n1	MS	-	>27 µg/mL
Nc1nc(NCC2CC2)c2ncn(/C=C3/C[C@@H]3CO)c2n1	-	HFF	>349 µM
OC[C@H]1O[C@@H](n2c(CCc3ccccn3)nc3ccccc32)[C@H](O)[C@@H]1O	-	HEL	>100 µg/mL
CC1(C)C(OC2O[C@H](C(=O)O)[C@@H](O)[C@H](N[C@@H]3O[C@H](CO)[C@H](O)[C@H](O)[C@H]3O)[C@H]2OC2O[C@H](O)[C@@H](O)[C@H](O)[C@H]2C(=O)O)CC[C@@]2(C)C1CC[C@]1(C)C2C(=O)C=C2C3C[C@@](C)(C(=O)O)CC[C@]3(C)CC[C@]21C	-	VERO	>32 µg/mL
Nn1c(-c2cn(-c3ccccc3)nc2-c2ccccc2)n[nH]c1=S	G	HEL	>80 µg/mL
O=c1[nH]c(=O)n([C@H]2C[C@@H](CO)[C@H](O)C2)cc1/C=C/Br	G	PRK	20 µg/mL
OC[C@H]1O[C@@H](c2cc(I)c(F)cc2F)C[C@@H]1O	LYONS	E6SM	>400 µg/mL
OCCOCn1c(SCc2ccccn2)nc2cc(Cl)c(Cl)cc21	-	HEL	>50 µg/mL
CC1=CC(CO)(CO)C[C@H]1n1cnc2c(N)ncnc21	-	CCL-81	>100 µg/mL
Nc1nc(=O)n([C@H]2C[C@H](O)[C@@H](CO)O2)cc1/C=C/Br	G	Primary rabbit kidney cells	7 µg/mL
CCCCCCCCc1cc2cnc(=O)[nH]c2o1	G	HEL	>200 µM
COc1ccc(Cc2nn(COCCO)c(=O)[nH]c2=O)cc1	-	HFF	>100 µM
C=Cc1cn([C@H]2C[C@H](OC(=O)C3=CN(C)C=CC3)[C@@H](CO)O2)c(=O)[nH]c1=O	-	HFF	1.1 µM
O=C1O/C(=C\Cn2cnc3c(Cl)ncnc32)C(OCc2ccc([N+](=O)[O-])cc2)=C1OCc1ccc([N+](=O)[O-])cc1	G	HeLa	0.47 µM
Cc1nc(Cc2ccccc2)c2[nH]c(=S)[nH]c(=O)n12	G	PRK	150 µg/mL
O=c1[nH]c(=O)n([C@H]2C[C@H](O)[C@@H](CO)O2)cc1I	-	HFF	0.2 µM
Nc1nc2c(ncn2/C=C2/CC2(CO)CO)c(=O)[nH]1	-	HFF	>380 µM
Nc1nc2c(ncn2COC2COP(=O)(O)OC2)c(=O)[nH]1	-	HEF	20 µM
Nc1nc2c(ncn2[C@@H]2C[C@H](CO)[C@H]2CO)c(=O)[nH]1	-	VERO	0.7 µg/mL
O=c1[nH]c(=O)n([C@H]2S[C@H](CO)[C@@H](O)[C@@H]2F)cc1I	MS	-	>27 µg/mL
CC(=O)Nc1nc2c(CC(O)CO)ncn2c(=O)[nH]1	G	PRK	>200 µg/mL
CO[C@@H]1[C@@H](OC(N)=O)[C@@H](O)[C@H](Oc2ccc3c(O)c(NC(=O)c4ccc(O)c(CC=C(C)C)c4)c(=O)oc3c2C)OC1(C)C	UW	HeLa	25 µg/mL
Cc1cn([C@@H]2S[C@H](CO)[C@@H](O)[C@@H]2F)c(=O)[nH]c1=O	MS	-	3.2 µg/mL
Cc1c(-c2ccc(C(F)(F)F)cc2)[nH]c2nc3c(ncn3COCCO)c(=O)n12	196	HEL	9.6 µg/mL
Nc1nc2c(ncn2COCCO)c(=O)[nH]1	F23226 (acyclovir-resistant)	HFF	>50 µg/mL
OC[C@H]1O[C@H](c2cc(I)c(F)cc2F)C[C@@H]1O	G	E6SM	>400 µg/mL
Nc1ncnc2c1ncn2[C@@H]1S[C@H](CO)[C@@H](O)[C@@H]1F	MS	-	9 µg/mL
OCCOCn1c(SCc2ccccn2)nc2ccccc21	-	HEL	>100 µg/mL
[N-]=[N+]=N[C@H]1[C@@H](F)[C@H](N2C=CC(N)NC2=O)O[C@@H]1CO	G	PRK	>400 µg/mL
CCCCCCCCC#Cc1c[nH]c(=O)[nH]c1=O	G	HEL	>40 µM
O=c1c2ncn(COC(CO)CO)c2nc2[nH]c(-c3ccc(F)cc3)cn12	G	HEL	1.92 µg/mL
CCCCCCCCCCC#Cc1c[nH]c(=O)[nH]c1=O	G	HEL	>40 µM
Cc1cc([C@H]2C[C@H](O)[C@@H](CO)O2)c(F)cc1Cl	G	E6SM	>400 µg/mL
C=Cc1cn([C@H]2C[C@H](O)[C@@H](CO)O2)c(=O)[nH]c1=O	-	HFF	0.3 µM
O=c1[nH]c(=O)n([C@@H]2S[C@H](CO)[C@@H](O)[C@@H]2F)cc1CCCl	MS	-	3 µg/mL
Nc1nc2c(ncn2CC=C(CO)CO)c(=O)[nH]1	-	-	>100 µg/mL
O=c1[nH]c(=O)n([C@@H]2C[C@H](CO)[C@@H](O)C2)cc1I	G	PRK	10 µg/mL
NC1=Nn2c(nnc2-c2cn(-c3ccccc3)nc2-c2ccccc2)SC1	G	HEL	>16 µg/mL
O=c1[nH]c(=O)n(C2CC(CO)[C@@H](O)C2)cc1/C=C/Br	LYONS	PRK	20 µg/mL
O=c1c2ncn(COC(CO)CO)c2nc2[nH]c(-c3ccc(C(F)(F)F)cc3)cn12	LYONS	HEL	9.6 µg/mL
NC1=NC2C(C=CN2CC(CO)CCO)C(=O)N1	-	VERO	11 µg/mL
Nc1nc(NC2CC2)c2ncn(/C=C3/C[C@@H]3CO)c2n1	-	HFF	>73 µM
O=c1[nH]c(=O)n([C@H]2S[C@H](CO)[C@@H](O)[C@@H]2F)cc1CCO	MS	-	>27 µg/mL
C=CCc1nc(C)n2c(=O)[nH]cnc12	G	PRK	>100 µg/mL
Nc1ccn([C@@H]2C[C@H](CO)[C@@H](O)[C@H]2O)c(=O)n1	G	PRK	400 µg/mL
COC(=O)[C@H](C)NP(=O)(OCC1C/C1=C/n1cnc2c(N)ncnc21)Oc1ccccc1	-	HFF	1.1 µM
CCCCCCCC#Cc1cn(S(=O)(=O)c2ccc(C)cc2)c(=O)[nH]c1=O	G	HEL	>200 µM
Nc1nc2c(ncn2C[C@H]2CC2(CO)CO)c(=O)[nH]1	-	-	>100 µg/mL
OC[C@H]1O[C@@H](c2ccc(F)cc2F)C[C@@H]1O	LYONS	E6SM	>400 µg/mL
O=c1c2ncn(COCCO)c2nc2[nH]c(-c3ccc(F)cc3)cn12	G	HEL	>16 µg/mL
CCCCCCCc1cc2cnc(=O)[nH]c2o1	G	HEL	>200 µM
CC1=C[C@H](n2cnc3c(N)ncnc32)C[C@@]1(CO)c1ccccc1	-	CCL-81	>100 µg/mL
Cc1ccc(Cc2nn(COCCO)c(=O)[nH]c2=O)cc1	-	HFF	>100 µM
Nc1nc(NCC2CC2CO)c(N=O)c(=O)[nH]1	-	-	>100 µg/mL
CCCOc1nc(N)nc2c1ncn2/C=C1/C[C@@H]1CO	-	HFF	63 µM

ECn is the concentration giving n% inhibition of infection, replication or growth. Conditions beyond the fields shown may differ between rows.